Tests used:
[1] = target: HL-(M113R/N139Q)6(M113R/N139Q/L135C-D8)1.am6amPDP1-βCD construct (Staphylococcus aureus, UniProt P09616, L161C/M139R/N165Q); details: for residual current (RNA base, NMP): 160 mV, pH 7.5, preliminary, identity of peaks not yet verified; for residual current when a dNMP is bound: 160 mV in 800 mM KCl
[2] = target: HL-(M113R/N139Q)6(M113R/N139Q/L135C-D8)1 mutant (Staphylococcus aureus, UniProt P09616, L161C/M139R/N165Q); details: 800 mM KCl, pH 7.5, 160 mV

Molecule	residual current (RNA base, NMP) ([1]; 800 mM KCl) [pA]	residual current when a dNMP is bound [1] [pA]	further results
adensosine monophosphate	34	–	–
Cc1cn([C@H]2C[C@H](O)[C@@H](COP(=O)(O)O)O2)c(=O)[nH]c1=O	–	33	dwell time (binding time) in the construct compared with the other bases ([1]; 800 mM KCl): longer binding time
Nc1ccn([C@@H]2O[C@H](COP(=O)(O)O)[C@@H](O)[C@H]2O)c(=O)n1	38	–	–
Nc1nc2c(ncn2[C@H]2C[C@H](O)[C@@H](COP(=O)(O)O)O2)c(=O)[nH]1	–	30	–
heptakis(6-deoxy-6-amino)-6-N-mono(2-pyridyl)dithiopropanoyl-β-cyclodextrin	–	–	conductance of pore with reacted cyclodextrin [2]: 68 pA
Cc1c[nH]c(=O)nc1N	–	–	dwell time (binding time) in the construct compared with the other bases ([1]; 800 mM KCl): longer dwell time; Gaussian overlap with dAMP ([1]; 800 mM KCl, 170 mV, five nucleoside monophosphates): relatively large overlap; detection by the baseline construct ([1]; 800 mM KCl, 180 mV, pH 7.5, dGMP as internal calibrant): can detect
Nc1ncnc2c1ncn2[C@H]1C[C@H](O)[C@@H](COP(=O)(O)O)O1	–	36	–
Nc1nc2c(ncn2[C@@H]2O[C@H](COP(=O)(O)O)[C@@H](O)[C@H]2O)c(=O)[nH]1	30	–	–
Nc1ccn([C@H]2C[C@H](O)[C@@H](COP(=O)(O)O)O2)c(=O)n1	–	44	–
